Anti-infective test results gathered from many reports (values: NIAID ChemDB through PubChem).

Common to all: toxicity to cultured cells; measure: CC50

An empty or dashed field is not shown.

structure	method	cell line	result
CCCCn1c(=O)c2ccccc2c2c(OC)c(C(O)(C(F)(F)F)C(F)(F)F)cc(OC)c21	tetrazolium	Replicon cells	>100 µM
COC(=O)C1=C(CN2CC(F)(F)[C@@H]3[C@H]2CON3C[C@H](OC)C(C)(C)C(=O)O)NC(c2nccs2)=N[C@H]1c1ccc(F)c(F)c1F	WST / absorbance	HepG2.2.15	>100 µM
Cc1[nH]nc2c1C(c1cc(Cl)cc(C(F)(F)F)c1)(C(C)C)C(C#N)=C(N)O2	fluorescence	L6	46.5 µM
CC(C)N(Cc1cccc(OCCCCCC(=O)OC(=O)O)c1)C(=O)c1ccc(-c2cccc(O)c2)cc1		RAJI	>20 µM
Cc1[nH]nc2c1C(c1cc(Cl)cc(-c3cccc(C#N)c3)c1)(C1CCC1)C(C#N)=C(N)O2	fluorescence	L6	6.8 µM
CCCCn1c(=O)c2ccccc2c2c(OC)c(C(O)(C(F)(F)F)C(F)(F)F)c3c(c21)OCO3	tetrazolium	Replicon cells	93.9 µM
Cc1cn([C@H]2O[C@@H](CO)[C@H](O)[C@H]2F)c(=O)[nH]c1=O		H-1	1000 µM
O=C(Oc1cc(Cl)ccc1C(=O)Nc1ccc(C(F)(F)F)cc1)c1cnccn1	tetrazolium	HepG2 cells	1.66 µM
O=C(N[C@@H](Cc1ccc(N(CC2CCCCC2)C(=O)c2ccsc2)cc1)C(=O)N1CCCC1C(=O)O)OCC1c2ccccc2-c2ccccc21	XTT	TZM-bl	>42 µM
CCCCn1c(=O)c2ccccc2c2cc(C(O)(C(F)(F)F)C(F)(F)F)ccc21	tetrazolium	Replicon cells	15.8 µM
CC1CCCCC1C(=O)N(CC1CCCCC1)c1ccc(C[C@H](NC(=O)OCC2c3ccccc3-c3ccccc32)C(=O)N2CCCC2C(=O)O)cc1	XTT	TZM-bl	24.5 µM
CCN(CC)CCCNC(=O)c1ccc(-c2cc(C#N)cc(C3(C(C)C)C(C#N)=C(N)Oc4n[nH]c(C)c43)c2)s1	fluorescence	L6	96.8 µM
CCOc1nc(N)nc2ccc(-c3cccc(NS(=O)(=O)C(C)C)c3)nc12		Huh7	<10 µM
O=C(Nc1ccc(Cl)c(Cl)c1)c1ccc(Cl)cc1OS(=O)(=O)c1ccccc1	tetrazolium	HepG2 cells	1.7 µM
COCCNc1nc(N)nc2ccc(-c3ccc(C(=O)NC4CC4)cc3)nc12		Huh7	>20 µM
Cc1cn([C@H]2C=C[C@@H](COC(=O)CCCCCCCCCCCN=[N+]=[N-])O2)c(=O)[nH]c1=O		P4R5	>200 µM
N#Cc1cc(-c2ccccc2)n(Cc2nc3ccccc3[nH]2)c1N	sulforhodamine	MCF-7 breast cancer cells	0.515 µg/mL
Cc1[nH]nc2c1C(c1cc(C#N)cc(C#N)c1)(C(C)C)C(C#N)=C(N)O2	fluorescence	L6	>290 µM
CCOC(=O)C1=C(CN2CC(F)(F)[C@@H]3[C@H]2CON3CC[C@](C)(OC)C(=O)O)NC(c2nccs2)=N[C@H]1c1cccc(F)c1C	WST / absorbance	HepG2.2.15	>100 µM
CS(=O)(=O)Nc1cccc(-c2ccc3nc(N)nc(O[C@@H]4CCOC4)c3n2)c1		Huh7	>20 µM
CCOC(=O)Cn1c(CN2c3ccccc3Nc3nc(=O)c4ccccc4nc32)nc2ccccc21	sulforhodamine	MCF-7 breast cancer cells	0.934 µg/mL
C=CC(=O)N(CC1CCCCC1)c1ccc(C[C@H](NC(=O)OCC2c3ccccc3-c3ccccc32)C(=O)N2CCCC2C(=O)O)cc1	XTT	TZM-bl	50 µM
O=C(Nc1ccc(C(F)(F)F)cc1)c1cc(Br)ccc1O	tetrazolium	HepG2 cells	2.71 µM
CCOc1nc(N)nc2ccc(-c3cccc(NS(=O)(=O)c4ccc(C)cc4)c3)nc12		Huh7	>20 µM
CC(C)C1(c2cc(C#N)cc(C#N)c2)C(C#N)=C(N)Oc2[nH]ncc21	fluorescence	L6	242.4 µM
CCSCCCCCCCCCCCC(=O)OC[C@@H]1C=C[C@H](n2cc(C)c(=O)[nH]c2=O)O1		P4R5	>200 µM
CCOC(=O)CCCCCOc1cccc(CN(C(=O)c2ccc(-c3cccc(OCC(C)C)c3)cc2)C(C)C)c1		HEK 293	>20 µM
COC(=O)C1=C(CN2CC(F)(F)[C@H]3[C@@H]2CCN3CC[C@@](C)(O)C(=O)O)NC(c2nccs2)=N[C@H]1c1ccc(F)c(F)c1C	WST / absorbance	HepG2.2.15	>50 µM
O=C(N[C@@H](Cc1ccc(N(CC2CCCCC2)C(=O)c2ccno2)cc1)C(=O)N1CCCC1C(=O)O)OCC1c2ccccc2-c2ccccc21	XTT	TZM-bl	>58 µM
CC(=O)c1cccc(-c2ccc(C(=O)N(Cc3cccc(OCCCCCC(=O)OC(=O)O)c3)C(C)C)cc2)c1		HEK 293	>20 µM
CCOc1nc(N)nc2ccc(-c3ccc(Nc4nccs4)cc3)nc12		Huh7	10–20 µM
CCCCn1c(=O)c2cc(OC)ccc2c2cc(C(O)(C(F)(F)F)C(F)(F)F)cc(OC)c21	tetrazolium	Replicon cells	11.1 µM
Nc1c(-c2nc3ccccc3[nH]2)cc(-c2ccccc2)n1-c1ccc(Br)cc1	resazurin	A549 lung cancer cells	13.5 µM
O=C(Nc1ccc(C(F)(F)F)cc1)c1ccc(Cl)cc1OS(=O)(=O)c1ccccc1	tetrazolium	HepG2 cells	2.8 µM
CCOC(=O)C1=C(CN2CC(F)(F)[C@@H]3[C@H]2CON3C[C@H](O)C(C)(C)C(=O)O)NC(c2nc(C)cs2)=N[C@H]1c1cccc(F)c1C	WST / absorbance	HepG2.2.15	80.3 µM
COC(=O)c1cccc2oc(-c3cccc4oc(-c5ccccc5O)nc34)nc12	sulforhodamine	MCF-7 breast cancer cells	1.28 µM
CCOc1nc(N)nc2ccc(-c3ccc(Nc4nncs4)cc3)nc12		Huh7	>20 µM
Nc1nc2c(ncn2COCCO)c(=O)[nH]1		H-1	1000 µM
CCOc1nc(N)nc2ccc(-c3ccc(NC(=O)OC)cc3)nc12		Huh7	>20 µM
CC(=O)N[C@@H](Cc1ccccc1)C(=O)Oc1cc(Cl)ccc1C(=O)Nc1ccc(Cl)c(Cl)c1	MTT	Human PBMCs	44 µM
CN1CCCC1CCNC(=O)c1ccc(-c2ccc3nc(N)nc(O[C@H]4CCOC4)c3n2)cc1		Huh7	>20 µM
CCOC(OCC)C(=O)NCCc1ccc(OC)c(OC)c1		HEK 293	<7.5 µM
CCCCn1c(=O)c2cc(OC)ccc2c2cc(C(O)(C(F)(F)F)C(F)(F)F)c(OC)cc21	tetrazolium	Replicon cells	7.6 µM

Repeating the final 6 entries:

| structure | method | cell line | result |
|---|---|---|---|
| Nc1nc2c(ncn2COCCO)c(=O)[nH]1 |  | H-1 | 1000 µM |
| CCOc1nc(N)nc2ccc(-c3ccc(NC(=O)OC)cc3)nc12 |  | Huh7 | >20 µM |
| CC(=O)N[C@@H](Cc1ccccc1)C(=O)Oc1cc(Cl)ccc1C(=O)Nc1ccc(Cl)c(Cl)c1 | MTT | Human PBMCs | 44 µM |
| CN1CCCC1CCNC(=O)c1ccc(-c2ccc3nc(N)nc(O[C@H]4CCOC4)c3n2)cc1 |  | Huh7 | >20 µM |
| CCOC(OCC)C(=O)NCCc1ccc(OC)c(OC)c1 |  | HEK 293 | <7.5 µM |
| CCCCn1c(=O)c2cc(OC)ccc2c2cc(C(O)(C(F)(F)F)C(F)(F)F)c(OC)cc21 | tetrazolium | Replicon cells | 7.6 µM |

CCn: concentration that lowers growth or viability of the cells by n%. Lines come from different laboratories, so protocols vary. Two numbers with a dash give a range or band.